Measured values from several laboratories, pooled; numbers as filed in NIAID ChemDB.

Shared fields: cytotoxicity tests; measure: CC50

Neighbouring rows are from separate reports.

| compound | cells | read by | value |
|---|---|---|---|
| CCOC(=O)C1=C(CN2CC(F)(F)[C@H]3[C@@H]2CCN3C[C@H](OC)C(C)(C)C(=O)O)NC(c2nc(C)cs2)=N[C@H]1c1cccc(F)c1C | HepG2.2.15 | WST / absorbance | 22.8 µM |
| Cc1ccc(S(=O)(=O)NCCc2ccc3c(n2)NCCC3)cc1F | PBMC |  | 50 µM |
| C[C@@H]1CN(C(=O)c2ccccc2)CCN1C(=O)C(=O)c1c[nH]c2c(-n3cccn3)ncc(Br)c12 | HeLa | trypan blue | >100 µM |
| N#Cc1ccc(OCCCCCOc2cccc(NC(N)=S)c2)cc1 | Ava5-EG(delta4AB)SEAP | MTS | >1 µM |
| O=C(NCCc1ccc2c(n1)NCCC2)Nc1ccc(SC(F)(F)F)cc1 | PBMC |  | 23 µM |
| O=C(NCCc1ccccc1)c1ccc2c(c1)CN(c1cc(=O)n(O)c3ncccc13)CC2 | HeLa |  | <100 µM |
| S=C(NCCc1ccccc1)Nc1ccc2c(c1)Cc1cc(Br)ccc1-2 | Ava5-EG(delta4AB)SEAP | MTS | >1 µM |
| CCOC(=O)CCCCCOc1cccc(C=O)c1 | BJ |  | >20 µM |
| NC(=S)Nc1cccc(OCCCCCOc2ccc(-c3ccco3)cc2)c1 | Ava5-EG(delta4AB)SEAP | MTS | >1 µM |
| COc1cnc(-c2cncnc2)c2[nH]cc(C(=O)C(=O)N3CCN(C(=O)c4ccccc4)CC3)c12 | HeLa | trypan blue | ≤100 µM |
| CC(CCOc1ccccc1)CCOc1cccc(NC(N)=S)c1 | Ava5-EG(delta4AB)SEAP | MTS | >1 µM |
| CCOC(=O)CCCCCOc1cccc(CN(C(=O)c2ccc(-c3cccc4ccccc34)cc2)C(C)C)c1 | BJ |  | >20 µM |
| Cc1ccc(OC(=O)NCC2CCc3ccccc3N2)cc1 | PBMC |  | 50 µM |
| COc1ccc(-c2ccccc2OCCCCCOc2cccc(NC(N)=S)c2)cc1 | Ava5-EG(delta4AB)SEAP | MTS | >1 µM |
| COc1ccc(NC(=O)c2c(O)c3cccnc3n(O)c2=O)cc1 | HeLa |  | <100 µM |
| O=C(NCc1ccc2c(n1)NCCC2)Nc1ccc(Cl)c(Cl)c1 | PBMC |  | 50 µM |
| CCNc1cccc(-c2cccc(-c3cc(=O)n(O)c4ncccc34)c2)c1.O=S=O | HeLa |  | <100 µM |
| CCOC(=O)C1=C(CN2CC(F)(F)[C@@H]3[C@H]2CON3C[C@H](O)C(C)(C)C(=O)O)NC(c2nccs2)=N[C@H]1c1ccc(F)cc1Cl | HepG2.2.15 | WST / absorbance | 100 µM |
| CC(NCc1cccc(Cl)c1)c1cnc2c(c1)c(O)c(-c1ccccc1)c(=O)n2O | HeLa |  | <100 µM |
| CC(C)N(Cc1cccc(OCCCCCC(=O)OC(=O)O)c1)C(=O)c1ccc(-c2cccc(C(F)(F)F)c2)cc1 | RAJI |  | >20 µM |
| CCOC(=O)C1=C(CN2CC(F)(F)[C@H]3[C@@H]2CCN3C[C@@](C)(F)C(=O)O)NC(c2nccs2)=N[C@H]1c1cccc(F)c1C | HepG2.2.15 | WST / absorbance | 25.3 µM |
| O=C(NCCc1ccc2c(n1)NCCC2)Nc1cc(F)cc(C(F)(F)F)c1 | PBMC |  | 6 µM |
| COC(=O)C1=C(CN2CC(F)(F)[C@@H]3[C@H]2CON3C[C@H](OC)C(C)(C)C(=O)O)NC(c2nccs2)=N[C@H]1c1ccc(F)c(F)c1F | HepG2.2.15 | WST / absorbance | >100 µM |
| NC(=O)NCCc1ccc2c(n1)NCCC2 | PBMC |  | 50 µM |
| CCOC(=O)C1=C(CN2CC(F)(F)[C@@H]3[C@H]2CON3C[C@H](O)C(C)(C)C(=O)O)NC(c2nccs2)=N[C@H]1c1cccc(F)c1Cl | HepG2.2.15 | WST / absorbance | >100 µM |
| O=C1N[C@H](c2ccccc2)C(c2ccccc2)Nc2c1c(=O)n(O)c1ncccc21 | HeLa |  | <100 µM |
| O=S(=O)(NCCc1ccc2c(n1)NCCC2)c1ccc(C(F)(F)F)cc1 | PBMC |  | 50 µM |
| COc1ccc(C)cc1OCCBr | BJ |  | >20 µM |
| COc1ccnc2[nH]cc(C(=O)C(=O)N3CCN(C(=O)c4ccccc4)C[C@H]3C)c12 | HeLa | trypan blue | >100 µM |
| CCOC(=O)C1=C(CN2CC(F)(F)[C@H]3[C@@H]2CON3C[C@H](O)C(C)(C)C(=O)O)NC(c2nc(C)cs2)=N[C@H]1c1cccc(F)c1C | HepG2.2.15 | WST / absorbance | 21.7 µM |
| O=c1cc(Nc2cccc(-c3ccccc3)c2)c2cccnc2n1O | HeLa |  | <100 µM |
| CCOC(=O)CCCCCOc1cccc(CN(C(=O)c2ccc(-c3ccsc3)cc2)C(C)C)c1 | BJ |  | >20 µM |
| O=c1cc(Nc2ccccc2N2CCOCC2)c2cccnc2n1O | HeLa |  | 0.2 µM |
| O=C(NCCc1ccc2c(n1)NCCC2)NC1CC1 | PBMC |  | 50 µM |
| CC(C)(C)OC(=O)NCC(OC(=O)C(O)CO)c1ccc2c(c1)OCO2 | BJ |  | <7.5 µM |
| COc1cnc(-c2n[nH]c(C)n2)c2[nH]cc(C(=O)C(=O)N3CCN(C(=O)c4ccccc4)CC3)c12 | HeLa | trypan blue | >100 µM |
| O=S(=O)(NCCc1ccc2c(n1)NCCC2)c1c(F)cccc1F | PBMC |  | 50 µM |
| NC(=S)Nc1ccc2c(c1)Cc1cc(NCc3ccccc3)ccc1-2 | Ava5-EG(delta4AB)SEAP | MTS | >1 µM |
| O=c1c2cc(-c3ccccc3)ccc2c2cccnc2n1O | HeLa |  | <100 µM |

Repeating the final 4 entries:

compound | cells | read by | value
COc1cnc(-c2n[nH]c(C)n2)c2[nH]cc(C(=O)C(=O)N3CCN(C(=O)c4ccccc4)CC3)c12 | HeLa | trypan blue | >100 µM
O=S(=O)(NCCc1ccc2c(n1)NCCC2)c1c(F)cccc1F | PBMC |  | 50 µM
NC(=S)Nc1ccc2c(c1)Cc1cc(NCc3ccccc3)ccc1-2 | Ava5-EG(delta4AB)SEAP | MTS | >1 µM
O=c1c2cc(-c3ccccc3)ccc2c2cccnc2n1O | HeLa |  | <100 µM

CCn is the concentration with n% toxicity to the cells. An empty or dashed field is not shown.